Tests used:
LptAm^Q62L (E. coli) = biological target: T1, LptAm^Q62L (E. coli) (E. coli (ATCC 25922)); assay: FP
T1 chain: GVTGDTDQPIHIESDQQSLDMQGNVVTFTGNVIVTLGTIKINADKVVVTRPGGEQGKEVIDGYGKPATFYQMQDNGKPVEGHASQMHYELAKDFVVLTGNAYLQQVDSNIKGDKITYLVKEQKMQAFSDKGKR

[1] = biological target: T2, LptAm (E. coli), monomeric truncated variant of LptA (E. coli (ATCC 25922)); assay: FP
T2 chain: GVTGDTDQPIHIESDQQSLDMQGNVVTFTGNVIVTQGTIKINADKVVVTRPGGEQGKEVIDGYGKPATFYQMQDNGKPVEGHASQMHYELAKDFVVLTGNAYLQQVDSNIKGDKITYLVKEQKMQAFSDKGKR

B1: LptC^AA (E. coli), periplasmic domain LptC(25-191) Y60A R61A (domain or fragment)
chain: GAEKDDTAQVVVNNNDPTYKSEHTDTLVYNPEGALSAALIAQHVEYYSDQAVSWFTQPVLTTFDKDKIPTWSVKADKAKLTNDRMLYLYGHVEVNALVPDSQLRRITTDNAQINLVTQDVTSEDLVTLYGTTFNSSGLKMRGNLRSKNAELIEKVRTSYEIQNKQTQP
B1 showed an IC50 (LptAm^Q62L (E. coli)) of about 38.7 µM and an IC50 [1] of 10.8 µM.
